PubChem BioAssay AID504761 | Drosophila RNAi Screening Center, 2011

Assay: 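Genome-wide fly cell screen for genes dengue virus requires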 (primary screen)
System: D.Mel-2 cells from Drosophila
Knock-down reagent: long dsRNA against Drosophila genes
Challenge: infection with dengue virus type 2; dose and infection time not stated
Measured: 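Cells stained for dengue envelope protein and imaged; percent of infected cells per well on duplicate plates, ranked by infection, with stained nuclei counted for cell number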
Reading the numbers: infection score: higher = more virus-infected cells; cell count: higher = more cells in the well
Hit rule: 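Low infection ranks in the two replicates (chance level up to 0.065) followed by a retest with a 1.5-fold or larger significant decrease, p below 0.05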
Calls: active = confirmed: knock-down lowers infection; inactive = not picked or not confirmed
The deposit covers about 22,000 reagents; this is a random part of those with a known target gene and a result. In the full data, 116 (0.52%) are marked active. 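Calls depend on retest data that are not deposited; infection was ranked per plate without normalising between plates; the unit of the infection score is not given.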 Raw values are not corrected between plates. Entries without a mark were called inactive. Names joined by + are all predicted targets of the reagent. Further read-outs or replicates are left out here. The record does not give: the amount of reagent, the time to read-out.

The first 4 records, to show the layout:
Gene	dsRNA	infection score, replicate 1	infection score, replicate 2	cell count, replicate 1
Osi2 (Osiris 2)	DRSC12174	6.04	3.6	6171
Osi2 (Osiris 2)	DRSC28374	21.2	15.9	4875
CG42560 + CG42559	DRSC21873	5.22	6.48	6115
org-1 (optomotor-blind-related-gene-1)	DRSC22974	0.83	6.33	6288

Results, repeating the preview:
Gene	dsRNA	infection score, replicate 1	infection score, replicate 2	cell count, replicate 1
Osi2 (Osiris 2)	DRSC12174	6.04	3.6	6171
Osi2 (Osiris 2)	DRSC28374	21.2	15.9	4875
CG42560 + CG42559	DRSC21873	5.22	6.48	6115
org-1 (optomotor-blind-related-gene-1)	DRSC22974	0.83	6.33	6288
org-1 (optomotor-blind-related-gene-1)	DRSC25771	4.46	2.11	5965
Ugt37D1 (UDP-glycosyltransferase family 37 member D1)	DRSC02645	2.99	12.9	6161
Ugt37D1 (UDP-glycosyltransferase family 37 member D1)	DRSC23980	2.7	9.92	6338
lilli (lilliputian)	DRSC00708	3.36	2.79	5543
CG42307 + mus312	DRSC11008	5.22	4.57	6228
CG42307 + mus312	DRSC27742	27.8	19.4	5743
CG12075	DRSC17801	7.82	4.82	6008
CG12075	DRSC25257	3.38	2.94	6741
CG4042	DRSC11751	7.04	26.4	6092
CG4042	DRSC29114	7.4		5052
CG12971	DRSC11681	14.9	4.87	5869
CG12971	DRSC23893	6.65	4.96	6196
CG31606	DRSC01012	0.69	1.03	6270
mthl3 + mthl4	DRSC25990	5.34	4.45	6520
ppk24 (pickpocket 24)	DRSC15093	7.6	5.93	6300
CG15820	DRSC08480	13.2	11.9	5467
CG15820	DRSC27847	0.65	6.02	616
Snmp2 (Sensory neuron membrane protein 2)	DRSC10228	2.9	6.94	6278
Snmp2 (Sensory neuron membrane protein 2)	DRSC10843	6.27	2.57	6634
CG8460	DRSC03090	4.31	6.23	6215
Dlip3 (Dorsal interacting protein 3)	DRSC07401		27.6	532
Dlip3 (Dorsal interacting protein 3)	DRSC29615	21.6		5651
Efr (ER GDP-fucose transporter)	DRSC18322	2.26	2.73	6272
Efr (ER GDP-fucose transporter)	DRSC26945	12.3	5.6	6050
fz3 (frizzled 3)	DRSC18779	5.48	7.69	5711
fz3 (frizzled 3)	DRSC29682	7.16		1201
CG32533	DRSC19443	3.5	3.56	6477
CG32533	DRSC19553	6.45	7.31	5956
CG32533	DRSC24560	26.6	31.8	5196
Aduk (Another Drosophila Unc-51-like kinase)	DRSC16451	2.66	13.7	5555
Aduk (Another Drosophila Unc-51-like kinase)	DRSC29838	2.62	4.15	6519
gzl (godzilla E3 ubiquitin protein ligase)	DRSC12517	0.77	4.28	518
gzl (godzilla E3 ubiquitin protein ligase)	DRSC27120	23.2	15	5157
synr (sayonara)	DRSC02369	8.97	0.18	6021
dco (discs overgrown)	DRSC16929	8.08	1.52	198
dco (discs overgrown)	DRSC29211	9.86	12.2	4038
